According to patent US20070059272A1 (priority 2005, published 2007):

System: PCN production in PAO1 mutant strains
Test: Pyocyanin assay in PAO1 mutant, complemented and MvfR-truncated strains
Type: cell-based, Pseudomonas aeruginosa
[1] = overnight, 1 mM U-50,488 or 100 μM C4-HSL

Substance: trans-3,4-dichloro-N-methyl-N[2-(1-pyrolidinyl)cyclohexyl]benzeneacetamide methanesulfonate
- PCN production in mutants defective in lasR, lasI, rhlI, rhlR: did not restore PCN production
- PCN production in ΔGacA and ΔMvfR: could not restore PCN production
- PCN production in ΔPhzA1: produced no PCN
- dynamics of PCN production in ΔGacA/gacA (200 μM compound): delayed PCN production
- dynamics of PCN production in ΔMvfR/mvfR (200 μM compound): shift in PCN production at lower cell densities
- PCN response of MvfR truncation mutant 121-332 (defective in the DNA-binding domain): did not respond
- PCN production in ΔPhnA and ΔPqsA (much less than wild-type PAO1): slight increase in PCN production
- PCN production in ΔGacA/gacA [1]: decreased, albeit minimally
- PCN production in ΔMvfR/mvfR [1]: further increased
- PCN response of MvfR truncation mutants 1-292, 1-291 and 1-283 (substrate binding domain affected): did not respond
- PCN response of MvfR truncation mutants 1-299 and 1-293 (substrate binding domain not affected): enhanced PCN production
